Patent US20030220338A1, “Fungal efflux pump inhibitors” (priority 2001, published 2003)

Columns and labels:
[1] = test system: C. glabrata YEM19 (over-expressing the CgCDR1 and CgCDR2 pumps); test: Checkerboard / broth microdilution assay, potentiation of fluconazole vs. C. glabrata; conditions: for MIC: Nakaseomyces glabratus, 48 h; for MPC8: in combination with fluconazole, strain YEM19
[2] = test system: Candida albicans YEM15 (over-expressing the CDR1 and CDR2 pumps); test: Checkerboard / broth microdilution assay, potentiation of fluconazole vs. C. albicans; conditions: for MIC: Candida albicans, 48 h; for MPC8 = concentration of efflux pump inhibitor necessary to reduce the fluconazole MIC 8-fold: in combination with fluconazole, strain YEM15

| Compound | MIC [1] | MPC8 [1] | MIC [2] | MPC8 = concentration of efflux pump inhibitor necessary to reduce the fluconazole MIC 8-fold [2] |
| --- | --- | --- | --- | --- |
| COc1ccc(N(C(=O)Nc2ccc(F)cc2)C(C)c2nc3ccccc3c(=O)n2N2CCN(C(=O)OCCN3CCOCC3)CC2)c(OC)c1 (stereo not shown) [Compound 101] | > 32 µg/mL | 0.125 µg/mL | > 32 µg/mL | 0.5 µg/mL |
| COc1ccc(N(C(=O)Nc2cccc(Cl)c2)C(C)c2nc3ccccc3c(=O)n2N2CCN(C(=O)OC(C)(C)C)CC2)c(OC)c1 (stereo not shown) [Compound 86] | > 32 µg/mL | 2 µg/mL | > 32 µg/mL | 1 µg/mL |
| COC(=O)N[C@@H](C)C(=O)N1CCN(n2c(C(C)N(C(=O)Nc3ccc(F)cc3)c3ccc(OC)cc3OC)nc3ccccc3c2=O)CC1 (stereo partly shown) [Compound 193] | > 32 µg/mL | 0.25 µg/mL | > 32 µg/mL | 2 µg/mL |
| COc1ccc(N(C(=O)Nc2ccc(F)cc2)C(C)c2nc3ccccc3c(=O)n2N2CCN(C(=O)Cn3ccc(=O)cc3)CC2)c(OC)c1 (stereo not shown) [Compound 148] | > 32 µg/mL | 16 µg/mL | > 32 µg/mL | 32 µg/mL |
| COc1ccc(N(C(=O)Nc2ccc(Cl)cc2)C(C)c2nc3ccccc3c(=O)n2N2CCN(CCCC(=O)NS(C)(=O)=O)CC2)c(OC)c1 (stereo not shown) [Compound 151] | > 32 µg/mL | 32 µg/mL | > 32 µg/mL | 32 µg/mL |
| COc1ccc(N(C(=O)Nc2ccc(F)cc2)C(C)c2nc3cc(F)ccc3c(=O)n2N2CCN(C)CC2)c(OC)c1 (stereo not shown) [Compound 81] |  | 1 µg/mL |  | 0.5 µg/mL |
